A mixed list of measured activities; the numbers were collected in NIAID ChemDB.

All rows: cytotoxicity tests; cell line: MT-4; endpoint: CC50

Blank or dashed fields: not listed here. Lines come from different laboratories, so protocols vary. CCn is the concentration with n% toxicity to the cells.

structure,read by,result
O=C1NCc2c1cccc2-c1cc(-c2cc(F)cc(Cl)c2)n(-c2cccc(Cl)c2)n1,resazurin,>3.3 µM
C=C(C)[C@@H]1CC[C@]2(C(=O)NCCCCCCCCNC(C)=O)CC[C@]3(C)[C@H](CC[C@@H]4[C@@]5(C)CC[C@H](OC(=O)CC(C)(C)C(=O)O)C(C)(C)[C@@H]5CC[C@]43C)[C@@H]12,-,7 µM
CCOC(=O)c1[nH]c2ccc(Cl)cc2c1S(=O)(=O)CC1CC1,microscopy,>10 µM
CC1(C)c2nc(C(=O)NCc3ccc(F)cc3)c(O)c(=O)n2CCN1CC(=O)O,microscopy,>1 µM
O=C1CC2CCC1C1C(=O)N(CCCCN3CCN(c4ccccc4)CC3)C(=O)C21,MTT,>100 µM
COc1cc2c(cc1OC)C1=NOC(c3cccc(N)c3)C1C2,MTT,13.83 µM
CC[C@@H]1C=CC[C@H](n2cnc3c(N)ncnc32)O1,-,>100 µM
NC(=O)/C(=C\c1ccc(Cl)cc1)n1nnc2ccccc21,-,16 µM
C=C1CN(S(=O)(=O)c2ccc(Br)cc2)CCCN(C(=O)OCC)CCCN(S(=O)(=O)c2ccc(Br)cc2)C1,-,>75 µM
Cc1cc(C)cc(Nc2c(C(C)C)c(=O)[nH]c(=O)n2Cc2ccncc2)c1,MTT,>100 µg/mL
C=C(C)[C@@H]1CC[C@]2(C(=O)NCCCCCCCCCCC(=O)O)CC[C@]3(C)[C@H](CC[C@@H]4[C@@]5(C)CC[C@H](OC(=O)C(C)(C)CC(=O)O)C(C)(C)[C@@H]5CC[C@]43C)[C@@H]12,-,8 µM
O=C1NCc2c1ccnc2-c1cc(-c2cc(F)cc(Cl)c2)n(-c2ccc(F)c(Cl)c2)n1,resazurin,>3.3 µM
CCc1c(C(=O)c2cc(F)cc(F)c2)n(Cc2cccnc2)c(=O)[nH]c1=O,MTT,74.3 µg/mL
Cc1ccc(S(=O)(=O)NC(C)c2nnc(SCc3ccc(Cl)cc3)o2)cc1,-,27.93 µg/mL
COc1cc2c(cc1OC)C1=NOC(c3cccs3)C1C2,MTT,31.02 µM
O=C1NCc2c1ccnc2-c1cc(-c2cc(Cl)cc(OC(F)F)c2)n(-c2cccnc2)n1,resazurin,>3.3 µM
COc1ccccc1/C=C(\C#N)n1nnc2ccccc21,-,8.3 µM
CCc1c(C(=O)c2cc(F)cc(F)c2)n(Cc2ccncc2)c(=O)[nH]c1=O,MTT,50.6 µg/mL
N#Cc1cc(Cl)cc(Oc2cc(OCc3[nH]nc4nc(N5CCC5)ccc34)ccc2Cl)c1,microscopy,>20 µM
C=C1CN(S(=O)(=O)c2ccc(C)cc2)CCCN(CC(C)CC)CCCN(S(=O)(=O)c2ccc(C)cc2)C1,-,34.5 µM
CS(=O)(=O)c1ccc(NC(=O)COc2ccc(Cl)c(Oc3cc(Cl)cc(C#N)c3)c2)c(Cl)c1,microscopy,>20 µM
N#C/C(=C\c1ccc(I)cc1)n1nnc2ccccc21,-,1.4 µM
CCOCn1c(Cc2ccccc2)c(C(C)C)c(=O)[nH]c1=O,MTT,>100 µM
O=C1NCc2c1ccnc2-c1cc(-c2cc(F)cc(Cl)c2)n(-c2cccnc2)n1,resazurin,>3.3 µM
O=c1ccn([C@@H]2C=CC[C@@H](CO)O2)c(=O)[nH]1,-,>100 µM
NC(=O)c1[nH]c2ccc(Cl)cc2c1S(=O)(=O)CCC1CC1,microscopy,>10 µM
C=C(C)[C@@H]1CC[C@]2(C(=O)NCCCCCCCCCNC(C)=O)CC[C@]3(C)[C@H](CC[C@@H]4[C@@]5(C)CC[C@H](OC(=O)CC(C)(C)C(=O)O)C(C)(C)[C@@H]5CC[C@]43C)[C@@H]12,-,7.4 µM
O=C1NCc2c1cccc2-c1cc(-c2cc(Br)cc(OC(F)F)c2)n(-c2cccnc2)n1,resazurin,>3.3 µM
COc1ccc(NC(=O)Nc2nc(NCCc3ccc(OC)c(OC)c3)nc(Oc3cc(=O)oc4ccccc34)n2)cc1,MTT,61.6 µg/mL
Cc1ccc(S(=O)(=O)NC(Cc2ccccc2)c2nnc(SCc3ccc(Br)cc3)o2)cc1,-,82.1 µg/mL
O=c1ccn([C@H]2C=CC[C@@H](CO)O2)c(=O)[nH]1,-,>100 µM
O=C(O)/C(=C\c1ccc(C(F)(F)F)cc1)n1nnc2ccccc21,-,>100 µM
CCOC(=O)c1[nH]c2ccc(Cl)cc2c1SC1CCCC1,microscopy,>10 µM
CC1CCN(CC(O)CN2C(=O)C3C4CCC(C(=O)C4)C3C2=O)CC1,MTT,>100 µM
N#Cc1cc(Cl)cc(Oc2cc(OCC(=O)Nc3ccncc3C(F)(F)F)ccc2Cl)c1,microscopy,>20 µM
CC1c2nc(C(=O)NCc3ccc(F)cc3)c(O)c(=O)n2CCN1C(=O)C(=O)N(C)C,microscopy,>1 µM
Cc1cc(C)cc(C(=O)c2c(C(C)C)c(=O)[nH]c(=O)n2Cc2cc(C)nc(C)c2)c1,MTT,9.9 µg/mL
Cc1ccc(S(=O)(=O)NC(C)c2nnc(SCc3ccccc3)o2)cc1,-,59.58 µg/mL
N#C/C(=C\c1ccc(Br)cc1)n1nc2ccccc2n1,-,3 µM
C=C1CN(S(=O)(=O)c2ccc(C)cc2)CCCN(C(C)CC)CCCN(S(=O)(=O)c2ccc(C)cc2)C1,-,42.6 µM
COc1ccc(C2ON=C3c4cc(OC)c(OC)cc4CC32)cc1,MTT,125 µM
O=C1NCc2c1ccnc2-c1cc(-c2cc(Cl)cc(OC(F)(F)F)c2)n(-c2cccnc2)n1,resazurin,>3.3 µM
O=C1CC2CCC1C1C(=O)N(CCCCN3CCN(c4ccccn4)CC3)C(=O)C21,MTT,>100 µM
Cc1cc(Cn2c(C(=O)c3cc(Cl)cc(Cl)c3)c(C(C)C)c(=O)[nH]c2=O)cc(C)n1,MTT,9.46 µg/mL
CCOC(=O)c1cn(CC(O)CSc2ccccc2)cc1-c1ccccc1,-,75.3 µM
CCOC(=O)CNc1nc(NC(=O)Nc2ccccc2Cl)nc(Oc2cc(=O)oc3ccccc23)n1,MTT,>78.8 µg/mL
CSCCC(c1nnc(SCc2ccc(Br)cc2)o1)N(Cc1ccc(Br)cc1)S(=O)(=O)c1ccc(C)cc1,-,>125 µg/mL
CCc1c(C(=O)c2cc(C)cc(C)c2)n(Cc2ccc(OC)cc2)c(=O)[nH]c1=O,MTT,2.14 µg/mL
O=C1NCc2c1ccnc2-c1cc(-c2cc(F)cc(OC(F)(F)F)c2)n(-c2ccc(F)c(Cl)c2)n1,resazurin,>3.3 µM
NC(=O)/C(=C\c1ccc(C(F)(F)F)cc1)n1nnc2ccccc21,-,4 µM
CC[C@@H]1C=CC[C@@H](n2cnc3c(N)ncnc32)O1,-,>100 µM
C=C1CN(S(=O)(=O)c2ccc(C)cc2)CCCN(Cc2cccnc2)CCCN(S(=O)(=O)c2ccc(C)cc2)C1,-,32.6 µM
Nc1ncnc2c1ncn2[C@@H]1C=C[C@H](CO)[C@H]1CO,-,>100 µg/mL
COc1cc2c(cc1OC)C1=NOC(c3c(Cl)cccc3Cl)C1C2,MTT,53.2 µM
CC(=O)N1CCn2c(nc(C(=O)NCc3ccc(F)cc3)c(O)c2=O)C1C,microscopy,>1 µM
COc1cc(/C=C(/C#N)n2nc3ccccc3n2)cc(OC)c1OC,-,>100 µM
CC(CC(F)(F)F)S(=O)(=O)c1c(C(N)=O)[nH]c2ccc(Cl)cc12,microscopy,>10 µM
C=C(C)[C@@H]1CC[C@]2(C(=O)NCCCCCCCC(=O)N[C@@H](CC(C)C)C(=O)O)CC[C@]3(C)[C@H](CC[C@@H]4[C@@]5(C)CC[C@H](OC(=O)CC(C)(C)C(=O)O)C(C)(C)[C@@H]5CC[C@]43C)[C@@H]12,-,>10 µM
C=C1CN(S(=O)(=O)c2ccc(Br)cc2)CCCN(Cc2ccccc2)CCCN(S(=O)(=O)c2ccc(Br)cc2)C1,-,47.7 µM
CCOC(=O)CNc1nc(Nc2ccccc2Cl)nc(Oc2cc(=O)oc3ccccc23)n1,MTT,67.7 µg/mL
CC(NS(=O)(=O)c1ccc(Cl)cc1)c1nnc(SCc2ccc(Br)cc2)o1,-,>12.33 µg/mL
CC(C)N1CCn2c(nc(C(=O)NCc3ccc(F)cc3)c(O)c2=O)C(N(C)C(=O)C(=O)N(C)C)C1,microscopy,>1 µM
CCc1c(Cc2cc(Cl)cc(Cl)c2)n(COC/C(C)=C/c2ccccc2)c(=O)[nH]c1=O,MTT,32 µM
N#C/C(=C\c1ccco1)n1nc2ccccc2n1,-,>100 µM
CCOC(=O)c1cc2cc(Cl)ccc2n1CC(O)CNc1ccccc1C(=O)OC,-,39 µM
CN1Cn2c(nc(C(=O)NCc3ccc(F)cc3)c(O)c2=O)C12CCCCC2,microscopy,>1 µM
C=C1CN(S(=O)(=O)c2ccc(C)cc2)CCCN(CCC(C)C)CCCN(S(=O)(=O)c2ccc(C)cc2)C1,-,32.5 µM
COc1ccccc1N1CCN(CC(O)CN2C(=O)C3C4CCC(C(=O)C4)C3C2=O)CC1,MTT,>100 µM
C=C(C)COCn1c(Cc2cc(Cl)cc(Cl)c2)c(CC)c(=O)[nH]c1=O,MTT,25 µM
CCOC(=O)c1cn(CC(O)CNc2ccccc2Cl)cc1-c1ccccc1,-,47.3 µM
C=CCOCn1c(Cc2cc(Cl)cc(Cl)c2)c(CC)c(=O)[nH]c1=O,MTT,23 µM
N#Cc1cc(Cl)cc(Oc2cc(F)cc(OCc3[nH]nc4ncccc34)c2)c1,microscopy,>20 µM
COC(=O)c1ccccc1NCC(O)Cn1c(C(=O)NC(C)(C)C)cc2ccccc21,-,39 µM
Cc1cc(C)cc(Sc2c(C(C)C)c(=O)[nH]c(=O)n2Cc2ccncc2)c1,MTT,8.5 µg/mL
CCc1c(Cc2cc(Cl)cc(Cl)c2)n(COC2CCc3ccccc32)c(=O)[nH]c1=O,MTT,35 µM
Cc1cn([C@@H]2CC=C[C@@H](CO)O2)c(=O)[nH]c1=O,-,>100 µM
N#Cc1cc(Cl)cc(Oc2cc(F)c(Cl)c(OCc3nnc4n(O)cccc3-4)c2)c1,microscopy,>20 µM
CCOC(=O)CNc1nc(Nc2cccc(C)c2)nc(Oc2cc(=O)oc3ccccc23)n1,MTT,65.28 µg/mL
COc1cc2c(cc1OC)C1=NOC(c3ccccc3)C1C2,MTT,10.76 µM